Test results reported in US20060035242A1.

Target: mouse pathogenic prion protein PrP^Sc (RML, in infected Balb-c mouse brain homogenate) (mouse) (UniProt P04925)

Substance: peptide reagent of SEQ ID NO:35
- ELISA A405 nm: 0.687 A405 nm
